Data as given in paper doi:10.1101/2023.04.28.538747.

Target: Recombinant mouse ACE2-Fc protein (mouse) (UniProt Q8R0I0)
Experiment: BLI

Work on “SARS-CoV-2 BA.5.5 RBD protein (from UniProt P0DTC2) (domain or fragment)” yielded a Kd of 121 nM.
